For at least one entry, the source does not settle the construct or the ends of the probe. A weaker result is weaker than the reference pair of the same experiment. Tags and fusion partners may be left off the protein sequences shown. At least one verdict rests on a figure or table, not on a statement of the authors.
Target: T1, Zur (zinc uptake regulator) (UniProt Q6NG23)
T1 sequence (looked up, limits assumed): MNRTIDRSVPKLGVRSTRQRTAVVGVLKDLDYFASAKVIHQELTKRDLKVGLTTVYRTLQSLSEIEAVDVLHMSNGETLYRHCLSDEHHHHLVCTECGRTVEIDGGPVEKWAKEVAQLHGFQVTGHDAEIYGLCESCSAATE
Test: EMSA
Conditions: 100 nM Zur, 1 nM oligo duplex, 10 mM Tris pH 7.5, 55 mM KCl, 1 mM DTT, 10% glycerol, 0.05% NP-40, 100 ug/ml BSA, 0.03 ug/ml salmon sperm DNA, recombinant protein, protein details: His-tag (pET30a), label: 5' biotin on strand 1

Row | Sequence | binding result (5 uM ZnCl2) | binding result (no added zinc) | binding result (EDTA up to 250 uM)
1 | CCCAATAAGTGAAAACGGTATCCATTAAGGGGG (double strand) [zrg (dip1486) site] | binds | – | –
2 | CCCAATTATCGGTAATTATTTTCATTAAAAGGG (double strand) [cmrA (dip2325) site] | binds | binds | –
3 | CCCCAATAATGAAAATGATTGTGATGTGCAGGG (double strand) [troA (dip0438) site] | binds | binds | binds more weakly
4 | CCCCCCTATTGGAATCCGATGTCAATTAACGGG (double strand) [cmrA2 (dip1724) site] | binds | – | –
5 | CCCCGTTATTGAAAATGTTGTGCAGTGGTGGGG (double strand) [dip2128 site] | binds | – | –
6 | CCCGTTTAGTGCGAACTAATTTCATTATGCGGG (double strand) [dip1087 site] | binds | – | –
7 | CCCTACTAAAGCACATGATTTCCATTAATGGGG (double strand) [dip0092-0093 site] | binds | – | –
8 | CCCTGCAAGTGGTAATTATTTTCAACAATGGGG (double strand) [sidA (dip2161) site] | binds | – | –
9 | CCCTGCACATGACAATCGTTGCCTATAGTGGGG (double strand) [iutE (dip0173) site] | binds | – | –
10 | CCCTGGTATTGGTTATCTTTTTCATTTTCCGGG (double strand) [dip0442 site] | binds | – | –
11 | CCCTTCTAATGGTACCTATTTTCAATAGGTGGG (double strand) [adhA (dip2114) site] | binds | binds | –
12 | CCCTTGAAATGAGAATGATTATCCGTATGGGGG (double strand) [dip0013 site] | binds | – | –
13 | GGGCCCTAATTGCAGACTTTTTCATTAACTCCC (double strand) [dip2162 site] | binds | – | –
14 | GGGTCGCAATAAGATTCATTTTCATGACTACCC (double strand) [iutA (dip0169) Zur site] | binds | binds | binds more weakly

— paper PMC6711530, “Identification of zinc and Zur-regulated genes in Corynebacterium diphtheriae”
